Experimental data: PubChem BioAssay AID1259414 (Drosophila RNAi Screening Center, 2018)

Test: 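Host factors increasing or decreasing Wolbachia levels in cultured fly cells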 (primary screen)
Cells: Drosophila JW18 cells infected with Wolbachia
Knock-down reagent: long dsRNA against Drosophila genes, 0.25 µg dsRNA per well of a 384-well plate
Duration: 5 days
Challenge: cells persistently infected with Wolbachia before knock-down; no added drug
Measured: 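Imaged fluorescence in situ signal for Wolbachia 23S rRNA per DAPI-counted host cell, given as a robust z-score within each plate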
Scale: Wolbachia per cell robust z: higher = more Wolbachia per host cell than the plate typical
Hit rule: 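Active if absolute robust z reaches 1.5 in two or more of three replicates, leaving out multi- or no-target dsRNAs, genes unexpressed in JW18 and A1 wells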
The screen tested about 24,000 reagents; shown is an unselected part of those with a known target gene and a result. Over the whole deposit, about 1,210 (5%) got an active call. 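Inactive calls also include excluded dsRNAs with several or no targets, genes unexpressed in JW18, and well A1, regardless of score.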 Entries without a mark were called inactive. Reagents against one gene are numbered here. A plus sign joins genes that one reagent is predicted to hit.

How did the screen score pall?
Wolbachia per cell robust z, rep 1: -7.87; Wolbachia per cell robust z, rep 2: 0.0779; Wolbachia per cell robust z, rep 3: -0.335

Which result is listed for CG8219 #1?
Wolbachia per cell robust z, rep 1: -0.51; Wolbachia per cell robust z, rep 2: -0.441; Wolbachia per cell robust z, rep 3: -3.53

What did the screen give for CG8219 #2?
Wolbachia per cell robust z, rep 1: -0.952; Wolbachia per cell robust z, rep 2: 2.02; Wolbachia per cell robust z, rep 3: -2.77

How did the screen score CG43338?
Wolbachia per cell robust z, rep 1: 0.716; Wolbachia per cell robust z, rep 2: -0.423; Wolbachia per cell robust z, rep 3: -0.209

For CG11141, what was measured?
Wolbachia per cell robust z, rep 1: 0.582; Wolbachia per cell robust z, rep 2: 0.259; Wolbachia per cell robust z, rep 3: 1

For Dph4, what does the deposit list?
Wolbachia per cell robust z, rep 1: -4.87; Wolbachia per cell robust z, rep 2: -1.03; Wolbachia per cell robust z, rep 3: 0.308

With Mat89Ba #1, what does the deposit list?
Wolbachia per cell robust z, rep 1: -0.219; Wolbachia per cell robust z, rep 2: -0.761; Wolbachia per cell robust z, rep 3: -0.572

Which result is listed for Mat89Ba #2?
Wolbachia per cell robust z, rep 1: -0.0485; Wolbachia per cell robust z, rep 2: -1.74; Wolbachia per cell robust z, rep 3: -0.929

For CG6689 #1, what was measured?
Wolbachia per cell robust z, rep 1: 0.33; Wolbachia per cell robust z, rep 2: 0.0242; Wolbachia per cell robust z, rep 3: -0.0396

For CG6689 #2, what does the deposit list?
Wolbachia per cell robust z, rep 1: 0.348; Wolbachia per cell robust z, rep 2: -1.15; Wolbachia per cell robust z, rep 3: -0.0785

What is on record for CG5435?
Wolbachia per cell robust z, rep 1: -1.17; Wolbachia per cell robust z, rep 2: -2.38; Wolbachia per cell robust z, rep 3: 0.266

For PIG-M + CG42380 + CG42381 + 1 more, what does the deposit list?
Wolbachia per cell robust z, rep 1: -0.534; Wolbachia per cell robust z, rep 2: 0.697; Wolbachia per cell robust z, rep 3: 0.535

What is on record for ATPsynCF6L #1?
Wolbachia per cell robust z, rep 1: 0.081; Wolbachia per cell robust z, rep 2: 1.39; Wolbachia per cell robust z, rep 3: 1.36

What did the screen give for ATPsynCF6L #2?
Wolbachia per cell robust z, rep 1: 0.48; Wolbachia per cell robust z, rep 2: 0.128; Wolbachia per cell robust z, rep 3: 0.821

For CG13693 #1, what does the deposit list?
Wolbachia per cell robust z, rep 1: 0.345; Wolbachia per cell robust z, rep 2: 0.909; Wolbachia per cell robust z, rep 3: 1.09

With CG13693 #2, how do the results read?
Wolbachia per cell robust z, rep 1: 0.685; Wolbachia per cell robust z, rep 2: 0.581; Wolbachia per cell robust z, rep 3: -0.0478

With CG9953, what was measured?
Wolbachia per cell robust z, rep 1: -1.69; Wolbachia per cell robust z, rep 2: -0.113; Wolbachia per cell robust z, rep 3: -0.519

What is on record for CG34435?
Wolbachia per cell robust z, rep 1: 0.795; Wolbachia per cell robust z, rep 2: -1.47; Wolbachia per cell robust z, rep 3: -0.667

What did the screen give for CG30275?
Wolbachia per cell robust z, rep 1: 0.891; Wolbachia per cell robust z, rep 2: 0.529; Wolbachia per cell robust z, rep 3: 0.405

What is on record for HDAC6 #1?
Wolbachia per cell robust z, rep 1: -0.683; Wolbachia per cell robust z, rep 2: -1.44; Wolbachia per cell robust z, rep 3: -0.782

With HDAC6 #2, what was measured?
Wolbachia per cell robust z, rep 1: 0.172; Wolbachia per cell robust z, rep 2: -3.65; Wolbachia per cell robust z, rep 3: 0.788

With l(2)k09913, what was measured?
Wolbachia per cell robust z, rep 1: -1.54; Wolbachia per cell robust z, rep 2: -0.765; Wolbachia per cell robust z, rep 3: -0.267

How did the screen score Arp10 #1?
Wolbachia per cell robust z, rep 1: -4.29; Wolbachia per cell robust z, rep 2: -0.289; Wolbachia per cell robust z, rep 3: -1.74

Which result is listed for Arp10 #2?
Wolbachia per cell robust z, rep 1: 0.128; Wolbachia per cell robust z, rep 2: 1.76; Wolbachia per cell robust z, rep 3: 0.738
